Source: PubChem BioAssay AID504761 (Drosophila RNAi Screening Center, 2011)

Assay: 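Insect host genes that dengue virus relies on to spread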 (primary screen)
Cells: D.Mel-2 cells from Drosophila
Reagent: long dsRNA against Drosophila genes
Treatment: infection with dengue virus type 2; dose and infection time not stated
Read-out: 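Cells stained for dengue envelope protein and imaged; percent of infected cells per well on duplicate plates, ranked by infection, with stained nuclei counted for cell number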
Reading the numbers: infection score: higher = more virus-infected cells; cell count: higher = more cells in the well
Call rule: 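Low infection ranks in the two replicates (chance level up to 0.065) followed by a retest with a 1.5-fold or larger significant decrease, p below 0.05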
Calls: active = confirmed: knock-down lowers infection; inactive = not picked or not confirmed
The deposit covers about 22,000 reagents; shown is an unselected part of those that have a named target and a result. In the full data, 116 (0.52%) got an active call. 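Calls depend on retest data that are not deposited; infection was ranked per plate without normalising between plates; the unit of the infection score is not given.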 Raw values vary from plate to plate and are shown uncorrected. Entries without a mark were called inactive. Names joined by + are all predicted targets of the reagent. Not given: the amount of reagent, the time to read-out.

gene,amplicon,"infection score, replicate 1","infection score, replicate 2","cell count, replicate 1","cell count, replicate 2"
Nplp4 (Neuropeptide-like precursor 4),DRSC00391,23.7,11.4,3016,6532
Rad23,DRSC17167,4.82,1.17,6243,6828
TH1,DRSC20289,13.7,2.53,5986,6294
CG9578,DRSC20694,1.67,0.65,6867,6573
CG9578,DRSC29540,25.3,7.12,5194,3523
Cp19 (Chorion protein 19),DRSC11121,6.61,2.63,6351,6724
Cp19 (Chorion protein 19),DRSC28639,12.1,,1511,383
mRpL12 (mitochondrial ribosomal protein L12),DRSC10467,1.29,5.92,855,1639
mRpL12 (mitochondrial ribosomal protein L12),DRSC28525,7.14,17.6,1680,5294
mnb (minibrain),DRSC20353,17.9,3.88,4767,7297
mnb (minibrain),DRSC23347,3.13,39.8,7341,6483
mnb (minibrain),DRSC24961,10.7,10.5,6650,5811
mnb (minibrain),DRSC28430,11.6,7.81,4058,4776
CG8888,DRSC07294,17.3,8.77,5611,5860
CG8888,DRSC07295,8.26,11.7,5680,6766
Atx-1 (Ataxin 1),DRSC18365,7.08,7.99,6839,6855
bor (belphegor),DRSC16915,6.54,15.3,4254,3294
CG31820,DRSC21318,2.06,1.5,6413,6716
CG31820,DRSC29683,13.3,32.9,5243,5328
bora (aurora borealis),DRSC10744,9.62,4.76,4668,5904
"Smyd4-3 (SET and MYND domain containing, class 4, member 3)",DRSC07041,20.2,18.1,5550,6476
"Smyd4-3 (SET and MYND domain containing, class 4, member 3)",DRSC28851,16.7,3.87,4521,1034
CG12723,DRSC19499,1.54,3.91,6577,7029
CG12723,DRSC26290,7.33,9.19,6047,6310
RpL24-like (Ribosomal protein L24-like),DRSC16111,3.53,6.96,5300,4815
hpRNA:CR18854 + IP3K1,DRSC02218,8.19,1.81,6495,6230
klar (klarsicht),DRSC08718,9.57,8.99,6538,6827
klar (klarsicht),DRSC22393,1.13,0.98,6015,6707
CG32271,DRSC08198,1.9,3.82,6304,6071
CG32271,DRSC27093,7.06,11.7,6414,6528
bigmax,DRSC15481,15.9,8.94,6607,6768
bigmax,DRSC27542,2.62,10.8,6995,2041
stnB + stnA,DRSC20969,27.6,7.23,2025,6890
stnB + stnA,DRSC21112,2.15,4.63,6617,6156
stnB + stnA,DRSC21113,3.34,1.24,6041,5807
CG30466,DRSC05556,2.71,1.12,6270,6160
Osi22 (Osiris 22),DRSC16442,4.08,2.27,6960,7045
Osi22 (Osiris 22),DRSC27176,6.93,13.2,6346,7003
CG5984,DRSC15930,6.37,1.45,5716,6833
CG16772,DRSC02516,3.88,2.74,6270,6275
CG16772,DRSC25947,5.73,1.26,6738,6766
Gr59a (Gustatory receptor 59a),DRSC21550,1.92,3.41,6194,6653
CG6006,DRSC13137,1.56,0.92,6161,5624
CG6006,DRSC15946,10.2,6.95,6630,6348
Ufd1 (Ubiquitin fusion-degradation 1-like),DRSC10607,8.33,6.8,3361,3325
CG5973,DRSC02918,8.57,15.4,6604,5903
Obp49a (Odorant-binding protein 49a),DRSC22562,5.36,0.69,6755,6652
Obp49a (Odorant-binding protein 49a),DRSC25703,6.73,1.08,5691,6036
CG14490,DRSC06461,10.2,23.4,6854,5500
CG14490,DRSC27641,4.59,5.5,6748,1490
CG10947,DRSC02111,3.22,3.91,6331,6695
CG10947,DRSC27404,15.8,5.1,6562,6888
Wdr33 (WD repeat domain 33),DRSC12162,1.76,16.6,6406,6339
Wdr33 (WD repeat domain 33),DRSC27065,3.18,2.8,5857,6211
Ptpa (Phosphotyrosyl phosphatase activator),DRSC00776,4.5,2.61,5884,7081
Ptpa (Phosphotyrosyl phosphatase activator),DRSC28747,8.81,,1827,385
Ca-alpha1T (Ca[2+]-channel protein alpha[[1]] subunit T),DRSC17842,4.31,7.36,6007,5749
Ca-alpha1T (Ca[2+]-channel protein alpha[[1]] subunit T),DRSC18103,1.69,3.92,6409,6758
Ca-alpha1T (Ca[2+]-channel protein alpha[[1]] subunit T),DRSC18356,8.05,20.4,6039,5315
Ca-alpha1T (Ca[2+]-channel protein alpha[[1]] subunit T),DRSC18357,18,19.2,5463,4192
Ca-alpha1T (Ca[2+]-channel protein alpha[[1]] subunit T),DRSC21430,2.06,11.4,5721,5957
